System: HepG2-NTCP cells
Experiment: TMT-based phosphoproteome profiling of HBV-infected vs mock HepG2-NTCP (HBV/mock ratio)
Set-up: species or system human
Settings: phosphosite abundance ratio of host protein, HBV-infected vs mock HepG2-NTCP, 7dpi, sheet Up-regulated

B1: Q9UK58 2xPhospho [S335(100); S341(99.7)] (protein, UniProt Q9UK58 1-526, looked up)
Cyclin-L1: MASGPHSTATAAAAASSAAPSAGGSSSGTTTTTTTTTGGILIGDRLYSEVSLTIDHSLIPEERLSPTPSMQDGLDLPSETDLRILGCELIQAAGILLRLPQVAMATGQVLFHRFFYSKSFVKHSFEIVAMACINLASKIEEAPRRIRDVINVFHHLRQLRGKRTPSPLILDQNYINTKNQVIKAERRVLKELGFCVHVKHPHKIIVMYLQVLECERNQTLVQTAWNYMNDSLRTNVFVRFQPETIACACIYLAARALQIPLPTRPHWFLLFGTTEEEIQEICIETLRLYTRKKPNYELLEKEVEKRKVALQEAKLKAKGLNPDGTPALSTLGGFSPASKPSSPREVKAEEKSPISINVKTVKKEPEDRQQASKSPYNGVRKDSKRSRNSRSASRSRSRTRSRSRSHTPRRHYNNRRSRSGTYSSRSRSRSRSHSESPRRHHNHGSPHLKAKHTRDDLKSSNRHGHKRKKSRSRSQSKSRDHSDAAKKHRHERGHHRDRRERSRSFERSHKSKHHGGSRSGHGRHRR
modifications: phosphorylated S335, S341
  HBV/mock: 1.387

B2: P42684 1xPhospho [S631(100)] (protein, UniProt P42684 2-1182, looked up)
Tyrosine-protein kinase ABL2: GQQVGRVGEAPGLQQPQPRGIRGSSAARPSGRRRDPAGRTTETGFNIFTQHDHFASCVEDGFEGDKTGGSSPEALHRPYGCDVEPQALNEAIRWSSKENLLGATESDPNLFVALYDFVASGDNTLSITKGEKLRVLGYNQNGEWSEVRSKNGQGWVPSNYITPVNSLEKHSWYHGPVSRSAAEYLLSSLINGSFLVRESESSPGQLSISLRYEGRVYHYRINTTADGKVYVTAESRFSTLAELVHHHSTVADGLVTTLHYPAPKCNKPTVYGVSPIHDKWEMERTDITMKHKLGGGQYGEVYVGVWKKYSLTVAVKTLKEDTMEVEEFLKEAAVMKEIKHPNLVQLLGVCTLEPPFYIVTEYMPYGNLLDYLRECNREEVTAVVLLYMATQISSAMEYLEKKNFIHRDLAARNCLVGENHVVKVADFGLSRLMTGDTYTAHAGAKFPIKWTAPESLAYNTFSIKSDVWAFGVLLWEIATYGMSPYPGIDLSQVYDLLEKGYRMEQPEGCPPKVYELMRACWKWSPADRPSFAETHQAFETMFHDSSISEEVAEELGRAASSSSVVPYLPRLPILPSKTRTLKKQVENKENIEGAQDATENSASSLAPGFIRGAQASSGSPALPRKQRDKSPSSLLEDAKETCFTRDRKGGFFSSFMKKRNAPTPPKRSSSFREMENQPHKKYELTGNFSSVASLQHADGFSFTPAQQEANLVPPKCYGGSFAQRNLCNDDGGGGGGSGTAGGGWSGITGFFTPRLIKKTLGLRAGKPTASDDTSKPFPRSNSTSSMSSGLPEQDRMAMTLPRNCQRSKLQLERTVSTSSQPEENVDRANDMLPKKSEESAAPSRERPKAKLLPRGATALPLRTPSGDLAITEKDPPGVGVAGVAAAPKGKEKNGGARLGMAGVPEDGEQPGWPSPAKAAPVLPTTHNHKVPVLISPTLKHTPADVQLIGTDSQGNKFKLLSEHQVTSSGDKDRPRRVKPKCAPPPPPVMRLLQHPSICSDPTEEPTALTAGQSTSETQEGGKKAALGAVPISGKAGRPVMPPPQVPLPTSSISPAKMANGTAGTKVALRKTKQAAEKISADKISKEALLECADLLSSALTEPVPNSQLVDTGHQLLDYCSGYVDCIPQTRNKFAFREAVSKLELSLQELQVSSAAAGVPGTNPVLNNLLSCVQEISDVVQR
modifications: phosphorylated S631
  HBV/mock: 1.3095

B3: P54105 1xPhospho [S102(100)] (protein, UniProt P54105 2-237, looked up)
Methylosome subunit pICln: SFLKSFPPPGPAEGLLRQQPDTEAVLNGKGLGTGTLYIAESRLSWLDGSGLGFSLEYPTISLHALSRDRSDCLGEHLYVMVNAKFEEESKEPVADEEEEDSDDDVEPITEFRFVPSDKSALEAMFTAMCECQALHPDPEDEDSDDYDGEEYDVEAHEQGQGDIPTFYTYEEGLSHLTAEGQATLERLEGMLSQSVSSQYNMAGVRTEDSIRDYEDGMEVDTTPTVAGQFEDADVDH
modifications: phosphorylated S102
  HBV/mock: 1.4484

B4: O75153 1xPhospho [S664(100)] (protein, UniProt O75153 1-1309, looked up)
Clustered mitochondria …: MLLNGDCPESLKKEAAAAEPPRENGLDEAGPGDETTGQEVIVIQDTGFSVKILAPGIEPFSLQVSPQEMVQEIHQVLMDREDTCHRTCFSLHLDGNVLDHFSELRSVEGLQEGSVLRVVEEPYTVREARIHVRHVRDLLKSLDPSDAFNGVDCNSLSFLSVFTDGDLGDSGKRKKGLEMDPIDCTPPEYILPGSRERPLCPLQPQNRDWKPLQCLKVLTMSGWNPPPGNRKMHGDLMYLFVITAEDRQVSITASTRGFYLNQSTAYHFNPKPASPRFLSHSLVELLNQISPTFKKNFAVLQKKRVQRHPFERIATPFQVYSWTAPQAEHAMDCVRAEDAYTSRLGYEEHIPGQTRDWNEELQTTRELPRKNLPERLLRERAIFKVHSDFTAAATRGAMAVIDGNVMAINPSEETKMQMFIWNNIFFSLGFDVRDHYKDFGGDVAAYVAPTNDLNGVRTYNAVDVEGLYTLGTVVVDYRGYRVTAQSIIPGILERDQEQSVIYGSIDFGKTVVSHPRYLELLERTSRPLKILRHQVLNDRDEEVELCSSVECKGIIGNDGRHYILDLLRTFPPDLNFLPVPGEELPEECARAGFPRAHRHKLCCLRQELVDAFVEHRYLLFMKLAALQLMQQNASQLETPSSLENGGPSSLESKSEDPPGQEAGSEEEGSSASGLAKVKELAETIAADDGTDPRSREVIRNACKAVGSISSTAFDIRFNPDIFSPGVRFPESCQDEVRDQKQLLKDAAAFLLSCQIPGLVKDCMEHAVLPVDGATLAEVMRQRGINMRYLGKVLELVLRSPARHQLDHVFKIGIGELITRSAKHIFKTYLQGVELSGLSAAISHFLNCFLSSYPNPVAHLPADELVSKKRNKRRKNRPPGAADNTAWAVMTPQELWKNICQEAKNYFDFDLECETVDQAVETYGLQKITLLREISLKTGIQVLLKEYSFDSRHKPAFTEEDVLNIFPVVKHVNPKASDAFHFFQSGQAKVQQGFLKEGCELINEALNLFNNVYGAMHVETCACLRLLARLHYIMGDYAEALSNQQKAVLMSERVMGTEHPNTIQEYMHLALYCFASSQLSTALSLLYRARYLMLLVFGEDHPEMALLDNNIGLVLHGVMEYDLSLRFLENALAVSTKYHGPKALKVALSHHLVARVYESKAEFRSALQHEKEGYTIYKTQLGEDHEKTKESSEYLKCLTQQAVALQRTMNEIYRNGSSANIPPLKFTAPSMASVLEQLNVINGILFIPLSQKDLENLKAEVARRHQLQEASRNRDRAEEPMATEPAPAGAPGDLGSQPPAAKDPSPSVQG
modifications: phosphorylated S664
  HBV/mock: 1.363

B5: Q8N1G2 1xPhospho [S66(100)] (protein, UniProt Q8N1G2 1-835, looked up)
Cap-specific mRNA …: MKRRTDPECTAPIKKQKKRVAELALSLSSTSDDEPPSSVSHGAKASTTSLSGSDSETEGKQHSSDSFDDAFKADSLVEGTSSRYSMYNSVSQKLMAKMGFREGEGLGKYSQGRKDIVEASSQKGRRGLGLTLRGFDQELNVDWRDEPEPSACEQVSWFPECTTEIPDTQEMSDWMVVGKRKMIIEDETEFCGEELLHSVLQCKSVFDVLDGEEMRRARTRANPYEMIRGVFFLNRAAMKMANMDFVFDRMFTNPRDSYGKPLVKDREAELLYFADVCAGPGGFSEYVLWRKKWHAKGFGMTLKGPNDFKLEDFYSASSELFEPYYGEGGIDGDGDITRPENISAFRNFVLDNTDRKGVHFLMADGGFSVEGQENLQEILSKQLLLCQFLMALSIVRTGGHFICKTFDLFTPFSVGLVYLLYCCFERVCLFKPITSRPANSERYVVCKGLKVGIDDVRDYLFAVNIKLNQLRNTDSDVNLVVPLEVIKGDHEFTDYMIRSNESHCSLQIKALAKIHAFVQDTTLSEPRQAEIRKECLRLWGIPDQARVAPSSSDPKSKFFELIQGTEIDIFSYKPTLLTSKTLEKIRPVFDYRCMVSGSEQKFLIGLGKSQIYTWDGRQSDRWIKLDLKTELPRDTLLSVEIVHELKGEGKAQRKISAIHILDVLVLNGTDVREQHFNQRIQLAEKFVKAVSKPSRPDMNPIRVKEVYRLEEMEKIFVRLEMKIIKGSSGTPKLSYTGRDDRHFVPMGLYIVRTVNEPWTMGFSKSFKKKFFYNKKTKDSTFDLPADSIAPFHICYYGRLFWEWGDGIRVHDSQKPQDQDKLSKEDVLSFIQMHRA
modifications: phosphorylated S66
  HBV/mock: 1.309

B6: Q8N1G2 2xPhospho [S51(96.1); S53(96.1)] (protein, UniProt Q8N1G2 1-835, looked up)
Cap-specific mRNA …: B5 Cap-specific mRNA …
modifications: phosphorylated S51, S53
  HBV/mock: 1.356

B7: Q8N1G2 2xPhospho [S66(99.8); S] (protein, UniProt Q8N1G2 1-835, looked up)
Cap-specific mRNA …: B5 Cap-specific mRNA …
modifications: 2x phospho incl. S66
  HBV/mock: 1.782

B8: Q8WTW3 1xPhospho [S/T] (protein, UniProt Q8WTW3 2-980, looked up)
Conserved oligomeric Golgi …: ATAATSPALKRLDLRDPAALFETHGAEEIRGLERQVRAEIEHKKEELRQMVGERYRDLIEAADTIGQMRRCAVGLVDAVKATDQYCARLRQAGSAAPRPPRAQQPQQPSQEKFYSMAAQIKLLLEIPEKIWSSMEASQCLHATQLYLLCCHLHSLLQLDSSSSRYSPVLSRFPILIRQVAAASHFRSTILHESKMLLKCQGVSDQAVAEALCSIMLLEESSPRQALTDFLLARKATIQKLLNQPHHGAGIKAQICSLVELLATTLKQAHALFYTLPEGLLPDPALPCGLLFSTLETITGQHPAGKGTGVLQEEMKLCSWFKHLPASIVEFQPTLRTLAHPISQEYLKDTLQKWIHMCNEDIKNGITNLLMYVKSMKGLAGIRDAMWELLTNESTNHSWDVLCRRLLEKPLLFWEDMMQQLFLDRLQTLTKEGFDSISSSSKELLVSALQELESSTSNSPSNKHIHFEYNMSLFLWSESPNDLPSDAAWVSVANRGQFASSGLSMKAQAISPCVQNFCSALDSKLKVKLDDLLAYLPSDDSSLPKDVSPTQAKSSAFDRYADAGTVQEMLRTQSVACIKHIVDCIRAELQSIEEGVQGQQDALNSAKLHSVLFMARLCQSLGELCPHLKQCILGKSESSEKPAREFRALRKQGKVKTQEIIPTQAKWQEVKEVLLQQSVMGYQVWSSAVVKVLIHGFTQSLLLDDAGSVLATATSWDELEIQEEAESGSSVTSKIRLPAQPSWYVQSFLFSLCQEINRVGGHALPKVTLQEMLKSCMVQVVAAYEKLSEEKQIKKEGAFPVTQNRALQLLYDLRYLNIVLTAKGDEVKSGRSKPDSRIEKVTDHLEALIDPFDLDVFTPHLNSNLHRLVQRTSVLFGLVTGTENQLAPRSSTFNSQEPHNILPLASSQIRFGLLPLSMTSTRKAKSTRNIETKAQVVPPARSTAGDPTVPGSLFRQLVSEEDNTSAPSLFKLGWLSSMTK
modifications: phospho
  HBV/mock: 1.43

From paper PMC9104152, “Phosphoproteomics Unravel HBV Triggered Rewiring of Host Phosphosignaling Events” (International Journal of Molecular Sciences, 2022)
